Measurements taken from patent KR20230010676A (dated 2023).

Biological target: SARS-CoV-2 스파이크 단백질 (SARS-CoV-2, UniProt P0DTC2 14-1273)
Assay: cell-based or functional assay

B1: S2N22 (antibody, V domains shown)
VH: EVQLVESGGGLVQPGGSLRLSCAASGFTFSSYPMSWVRQAPGKGLEWVSAISGSGNYTYYADSVKGRFTISRDNSKNTLYLQMNSLRAEDTAVYYCAKDPGGLSNFDFWGQGTLVTVSS
VL: NIQMTQSPSSLSASVGDRVTITCRASQSISTYLNWFQQKPGKAPKLLIYAASSLQSGVPSRFSGSGSGTDFTLTISSLQREDFATYYCQQTYSTPRIFGQGTKLEIK
EC50 (neutralisation): 0.0362 µg/mL | EC90 (neutralisation): 0.0588 µg/mL
